# Measured values from patent US20210252150A1 (VANDERBILT UNIVERSITY, published 2021).
# Residue numbers refer to the chain shown, from its start. Names and notes keep the numbering of the source.
# B1: rFluA-20 heavy chain mutant D98A (antibody, V domains shown)
# VH: QVQLQESGPGLVKPSETLSLTCSVSGVSVTSDIYYWTWIRQPPGKGLEWIGYIFYNGDTNYNPSLKSRVTMSIDTSKNEFSLRLTSVTAADTAVYFCARGTEALGYCSSGSCPNHWGQGTLVTVSS
# VL: DIQMTQSPSSLSASIGDRVTITCRPSQNIRSFLNWFQHKPGKAPKLLIYAASNLQSGVPSRFSGSGSGTEFTLTIRSLQPEDFATYYCQQSYNTPPTFGQGTKVEIK
# B2: rFluA-20 light chain mutant Q55A (antibody, V domains shown)
# VH: B1 VH with A103D
# VL: B1 VL with Q55A
# notes: recombinant IgG
# B3: rFluA-20 light chain mutant Y49A (antibody, V domains shown)
# VH: B1 VH with A103D
# VL: B1 VL with Y49A
# notes: recombinant IgG
# Assays:
# [1] = biological target: HA of A/Singapore/1/1957 (H2) (influenza A virus (H2), UniProt Q67333 16-525)
# [2] = biological target: HA of A/Hong Kong/1/1968 (H3N2) (influenza A virus (H3N2), UniProt Q91MA7 17-530)
binder,measurement,setting,value
B1,binding result,[1],no binding (tested: 10 µg/mL)
same,binding result,[2],no binding (tested: 10 µg/mL)
B2,binding result,[1],no binding (tested: 10 µg/mL)
B3,binding result,[1],no binding (tested: 10 µg/mL)
